Measured values from several laboratories, pooled; numbers as filed in NIAID ChemDB.

Common to all: tests on isolated targets

Percent inhibition refers to the dose given; in toxicity tests it is the harm to the cells. Blank or dashed fields: not listed here. ICn: concentration for n% inhibition. Neighbouring rows are from separate reports.

SMILES,read-out,strain,protein,method,dose,agent,result
CCCO[C@@H]1O[C@H](OS(=O)(=O)O)[C@@H](O)[C@H](O)[C@H]1NC(C)=O,IC50,H3N2 MEMPH/1/71,Sialidase,fluorescence,,Influenza A virus,11 µM
O=C(O)c1ncccc1O,IC50,,RNA-dependent RNA polymerase,,,Influenza A virus,>7500 µM
CC(C)(C)c1cc(Cl)c(O)c(C(N)C(=O)O)c1,Ki,Memphis/3/89,Neuraminidase,,,Influenza B virus,690 µM
COc1cccnc1C(=O)NO,IC50,,RNA-dependent RNA polymerase,,,Influenza A virus,>65 µM
CC(=O)N[C@@H]1[C@@H](N=C(N)N)C=C(C(=O)O)O[C@H]1C(=O)C(C)C,IC50,AICHI N2,Influenza virus sialidases,fluorescence,,Influenza A virus,0.025 µM
CC(C)(C)OC(=O)N1C[C@H](N)[C@H](C(=O)O)C1,Ki,Memphis/3/89,Neuraminidase,,,Influenza B virus,2500 µM
CCN(CC)C(=O)[C@@H]1C=C(C(=O)O)OC[C@H]1NC(C)=O,IC50,Victoria,Influenza virus sialidases,fluorescence,,Influenza B virus,>100 µM
NC(=O)c1ncccc1O,IC50,,RNA-dependent RNA polymerase,,,Influenza A virus,>500 µM
CCCCCCN(CCCCCC)C(=O)O[C@@H]([C@@H]1OC(C(=O)O)=C[C@H](N)[C@H]1NC(=O)O)[C@H](C)CO,IC50,H3N2 AICHI,Sialidase,,,Influenza A virus,76 µM
O=C(NO)c1cc(=O)c2ccccc2[nH]1,IC50,,RNA-dependent RNA polymerase,,,Influenza A virus,700 µM
CCCCCCCCCCCCC/C=C/[C@@H](O)[C@H](CO[C@@H]1O[C@H](CO)[C@H](O)[C@H](OS(=O)(=O)O)[C@H]1O)NC(=O)CCCCCCCCCCCCCCCCCCCCCCC,inhibition,H3N2 A/TOKYO/6/73,Sialidase,,200 µM,Influenza A virus,99.1%
C[C@H](CO)[C@@H](OC(N)=O)[C@@H]1OC(C(=O)O)=C[C@H](N=C(N)N)[C@H]1NC(=O)O,IC50,H3N2 AICHI,Sialidase,,,Influenza A virus,0.005 µM
CC(C)/C=C1\N=C(CC(C)C)C(=O)N(O)C1=O,IC50,A/PR/8/34,RNA polymerase II,,,Influenza A virus,>50 µM
O=c1[nH]c2c(Cl)cc(Cl)cc2c(=O)n1O,IC50,,RNA-dependent RNA polymerase,,,Influenza A virus,50 µM
COC(=O)C1=C[C@H](O)[C@@H](NC(=O)O)[C@H]([C@@H](O)[C@@H](O)CC#N)O1,Ki,,Neuraminidase,,,Influenza A virus,~3000 µM
C[C@H](CO)[C@@H](OC(N)=O)[C@@H]1OC(C(=O)O)=C[C@H](N)[C@H]1NC(=O)O,IC50,Victoria,Sialidase,,,Influenza B virus,0.41 µM
CCCCCCCCCCCCCCCCCC(=O)OC[C@@H](COP(=O)(O)OCCNCCO[C@@]1(C(=O)O)O[C@@H]([C@H](O)[C@H](O)CO)[C@H](NC(C)=O)[C@@H](O)[C@H]1F)OC(=O)CCCCCCCCCCCCCCCCC,IC50,H1N1 A/PR/8/34,Sialidase,,,Influenza A virus,31.3 µM
C[C@H](CO)[C@@H](OC(=O)N1CCN(C(=O)OCc2ccccc2)CC1)[C@@H]1OC(C(=O)O)=C[C@H](N=C(N)N)[C@H]1NC(=O)O,IC50,Victoria,Sialidase,,,Influenza B virus,0.34 µM
CC(=O)Nc1ccc(O[C@@H]2O[C@H](OS(=O)(=O)O)[C@@H](O)[C@H](O)[C@H]2NC(C)=O)cc1,IC50,H3N2 MEMPH/1/71,Sialidase,fluorescence,,Influenza A virus,33 µM
C[C@H](CO)[C@@H](OC(=O)NCCCCCCN)[C@@H]1OC(C(=O)O)=C[C@H](N=C(N)N)[C@H]1NC(=O)O,IC50,H3N2 AICHI,Sialidase,,,Influenza A virus,0.004 µM
O=C(NO)c1cc(=O)cc[nH]1,IC50,,RNA-dependent RNA polymerase,,,Influenza A virus,65 µM
CC(=O)N[C@H]1[C@H](OCC(O)CO)O[C@H](OS(=O)(=O)O)[C@@H](O)[C@@H]1O,IC50,H3N2 MEMPH/1/71,Sialidase,fluorescence,,Influenza A virus,19 µM

The last 2 rows once more:

{"SMILES": "O=C(NO)c1cc(=O)cc[nH]1", "read-out": "IC50", "protein": "RNA-dependent RNA polymerase", "agent": "Influenza A virus", "result": "65 µM"}
{"SMILES": "CC(=O)N[C@H]1[C@H](OCC(O)CO)O[C@H](OS(=O)(=O)O)[C@@H](O)[C@@H]1O", "read-out": "IC50", "strain": "H3N2 MEMPH/1/71", "protein": "Sialidase", "method": "fluorescence", "agent": "Influenza A virus", "result": "19 µM"}